Test results as given in patent publication US20190085033A1.

Target: BG505 SOSIP.664
Assay: SPR

PGT128
Kd: 8 nM
